Earlier results in publication PMC6904115 (Neuropharmacology, 2019).

System: NK1R
Details: compared with endogenous opioids; ref Marvizon et al., 2003b; cited from earlier work

## neurokinin A
  cleavage by peptidases: much less readily
